Measured values from several laboratories, pooled; numbers as filed in NIAID ChemDB.

Common to all: whole-cell or culture tests; organism: Mycobacterium smegmatis

Conditions beyond the fields shown may differ between rows. Zones are inhibition diameters on agar. MIC50, MIC90 and the like: level of inhibition, or share of isolates inhibited. An empty or dashed field is not shown.

smiles | strain or isolate | method | measure | dose | result
C[C@H]1NCc2cc(-c3ccc4c(=O)c(C(=O)O)cn(C5CC5)c4c3OC(F)F)ccc21 | A29663 | - | MIC | - | 0.06 µg/mL
Cc1c(N2CCNCC2)c(F)cn2c(=O)c(C(=O)O)cc(C3CC3)c12 | ATCC114 | - | MIC | - | 0.2 µg/mL
CC(C)N1CCN(c2cc3c(cc2F)c(=O)c(C(=O)O)cn3C2CC2)CC1 | KD2008 (GYRA G89C) | - | MIC99 | - | 7.4 µg/mL
Cc1c(N2C[C@@H](N)[C@@H](C)C2)c(F)cn2c(=O)c(C(=O)O)cc(C3CC3)c12 | ATCC114 | - | MIC | - | 1.56 µg/mL
COc1ccc(-c2nn(-c3ccccc3)cc2C2C3=C(NC(C)(c4cc(O)c(I)cc4Cl)NC3=O)Oc3c2c(C)nn3-c2ccccc2)cc1 | NCIM 5138 | agar diffusion / agar | zone | 1 mg/mL | 12 mm
COc1c(N2CCC(N)C2)c(F)cn2c(=O)c(C(=O)O)cc(C3CC3)c12.Cl | ATCC114 | - | MIC | - | 0.78 µg/mL
CCN1CCN(c2c(F)cc3c(=O)c(C(=O)O)cn(C4CC4)c3c2F)CC1 | KD1163 (GRYA+) | - | MIC99 | - | 0.1 µg/mL
Cc1nn(-c2ccccc2)c2c1C(c1cn(-c3ccccc3)nc1-c1ccc(Cl)cc1)C1=C(NC(C)(c3cc(O)c(I)cc3Cl)NC1=O)O2 | NCIM 5138 | agar diffusion / agar | zone | 1 mg/mL | 5.4 mm
Cc1c(N2CCC(C)(N)C2)c(F)cn2c(=O)c(C(=O)O)cc(C3CC3)c12.Cl | ATCC114 | - | MIC | - | 0.1 µg/mL
COc1c(N2CCNCC2)c(F)cc2c(=O)c(C(=O)O)cn(C3CC3)c12 | KD2012 (GYRA G89A) | - | MIC99 | - | 0.18 µg/mL
Cc1c(N2CC[C@@H](N(C)C)C2)c(F)cn2c(=O)c(C(=O)O)cc(C3CC3)c12 | ATCC114 | - | MIC | - | 0.2 µg/mL
COc1c(N2CCN(C(C)C)CC2)c(F)cc2c(=O)c(C(=O)O)cn(C3CC3)c12 | KD1990 (GYRA D95A) | - | MIC99 | - | 1.2 µg/mL
Cc1nn(-c2ccccc2)c2c1C(c1cn(-c3ccccc3)nc1-c1ccc(F)cc1)C1=C(NC(C)(c3cc(O)c(Cl)c(O)c3)NC1=O)O2 | NCIM 5138 | agar diffusion / agar | zone | 1 mg/mL | 11.5 mm
O=C(O)c1cn(C2CC2)c2c(F)c(N3CCNCC3)c(F)cc2c1=O | KD1991 (GYRA D95Y) | - | MIC99 | - | 1.6 µg/mL
Cc1nn(-c2ccccc2)c2c1C(c1cn(-c3ccccc3)nc1-c1ccc(F)cc1)C1=C(NC(C)(c3cc(O)cc(O)c3)NC1=O)O2 | NCIM 5138 | agar diffusion / agar | zone | 0.5 mg/mL | 5.5 mm

For reference, 2 entries again:

smiles | strain or isolate | method | measure | dose | result
COc1c(N2CCN(C(C)C)CC2)c(F)cc2c(=O)c(C(=O)O)cn(C3CC3)c12 | KD1990 (GYRA D95A) | - | MIC99 | - | 1.2 µg/mL
COc1c(N2CCC(N)C2)c(F)cn2c(=O)c(C(=O)O)cc(C3CC3)c12.Cl | ATCC114 | - | MIC | - | 0.78 µg/mL